Pooled drug test results. Numbers come from NIAID ChemDB, via PubChem.

Common to all: growth or infection tests; organism: HIV-1; read by: p24 / ELISA; measure: EC50

ECn is the concentration giving n% inhibition of infection, replication or growth.

| compound | cells | strain or isolate | changes | value |
|---|---|---|---|---|
| CC(C)C1=C2[C@H]3CC[C@@H]4[C@@]5(C)CC[C@H](OC(=O)[C@H]6C[C@@H](C(=O)O)C6(C)C)C(C)(C)[C@@H]5CC[C@@]4(C)[C@]3(C)CC[C@@]2([C@@H](O)CNC(=O)c2cccc(Cl)c2)CC1=O | MT-2 | 92HT599 |  | <1 µM |
| CCC1=C(C(=O)OCC2CCCCC2)C(c2ccc(C(=O)OCc3ccccc3)cc2)NC(=O)N1 | CEM |  |  | >5 µM |
| C[C@H](O)[C@H](CN[C@]12CC[C@@H](C3(C)CC3)[C@@H]1[C@H]1CC[C@@H]3[C@@]4(C)CC[C@H](OC(=O)[C@H]5C[C@@H](C(=O)O)C5(C)C)C(C)(C)[C@@H]4CC[C@@]3(C)[C@]1(C)CC2)N1CCS(=O)(=O)CC1 | MT-2 | NL4-3 | V7A | <0.05 µM |
| CCC1=C(C2=NC[C@@H](C3CCCCC3)O2)[C@H](c2cccc(O)c2)NC(=O)N1 | CEM |  |  | ≤1 µM |
| [2H]C(CCCN)(CNC(=O)C[C@@]12CC[C@]3(C)[C@H](CC[C@@H]4[C@@]5(C)CC[C@H](OC(=O)[C@H]6C[C@@H](C(=O)O)C6(C)C)C(C)(C)[C@@H]5CC[C@]43C)C1=C(C(C)C)C(=O)C2)NC(=O)c1ccc(Cl)cc1 | MT-2 | 92HT599 |  | <1 µM |
| CCC1=C(C(=O)OCC2CCCCC2)C(c2cc(O)c(O)c(Br)c2Br)NC(=O)N1 | CEM |  |  | 1–5 µM |
| CC1([C@@H]2CC[C@]3(NC[C@@H](CO)N4CCS(=O)(=O)CC4)CC[C@]4(C)[C@H](CC[C@@H]5[C@@]6(C)CC[C@H](OC(=O)[C@H]7C[C@@H](C(=O)O)C7(C)C)C(C)(C)[C@@H]6CC[C@]54C)[C@@H]23)CC1 | MT-2 | 92HT599 |  | <0.01 µM |
| CCN1CCN(CC(=O)NCC[C@@]23CC[C@]4(C)[C@H](CC[C@@H]5[C@@]6(C)CC[C@H](OC(=O)[C@H]7C[C@@H](C(=O)O)C7(C)C)C(C)(C)[C@@H]6CC[C@]54C)C2=C(C(C)C)C(=O)C3)CC1 | MT-2 | 92HT599 |  | <1 µM |
| CC1([C@@H]2CC[C@]3(NC[C@H](CO)N4CCS(=O)(=O)CC4)CC[C@]4(C)[C@H](CC[C@@H]5[C@@]6(C)CC[C@H](OC(=O)[C@H]7C[C@@H](C(=O)O)C7(C)C)C(C)(C)[C@@H]6CC[C@]54C)[C@@H]23)CC1 | MT-4 | NL4-3 | V7A | <0.05 µM |
| CCC1=C(C(=O)CCc2ccccc2)C(c2ccc(O)c(Cl)c2)NC(=O)N1 | CEM |  |  | >5 µM |
| CC(C)[C@@H](CN[C@]12CC[C@@H](C3(C)CC3)[C@@H]1[C@H]1CC[C@@H]3[C@@]4(C)CC[C@H](OC(=O)[C@H]5C[C@@H](C(=O)O)C5(C)C)C(C)(C)[C@@H]4CC[C@@]3(C)[C@]1(C)CC2)N1CCS(=O)(=O)CC1 | MT-2 | 92HT599 |  | <0.01 µM |
| Cc1ccnc2c1NC(=O)c1cccnc1N2C1CC1 | MT-4 | A17 | K103N/Y181C | >10 µM |
| CCC1=C(C(=O)OCC2CCCCC2)[C@H](c2cccc(OC(=O)C(C)(C)C)c2)NC(=O)N1 | CEM |  |  | ≤1 µM |
| CCN1C(=O)NC(=O)C(C(C)C)C1CC1CC(C)CC(C#N)C1=O | C8166 | RF | V82F/184V | 0.01209 µM |
| CC(C)C1=C2[C@H]3CC[C@@H]4[C@@]5(C)CC[C@H](OC(=O)[C@H]6C[C@@H](C(=O)O)C6(C)C)C(C)(C)[C@@H]5CC[C@@]4(C)[C@]3(C)CC[C@@]2(CCNCC(C)(C)NC(=O)c2cccc(Cl)c2)CC1=O | MT-2 | 92HT599 |  | <1 µM |
| CC(=O)OCC1=C[C@H]2[C@@H]3C(C)(C)[C@]3(O)[C@H](OC(=O)/C=C/c3ccccc3)[C@@H](C)[C@]2(O)[C@@H]2C=C(C)C(=O)[C@@]2(O)C1 | C8166 | IIIB |  | 29.42 µM |
| Cc1ccc(C(=O)NC(C)(C)C(=O)NC[C@H](O)[C@@]23CC[C@]4(C)[C@H](CC[C@@H]5[C@@]6(C)CC[C@H](OC(=O)[C@H]7C[C@@H](C(=O)O)C7(C)C)C(C)(C)[C@@H]6CC[C@]54C)C2=C(C(C)C)C(=O)C3)cc1 | MT-2 | 92HT599 |  | <1 µM |
| CC1=C(C(=O)OCC2CCCCC2)C(c2cccc(N)c2)NC(=O)N1 | CEM |  |  | ≤1 µM |
| CC(C)C1=C2[C@H]3CC[C@@H]4[C@@]5(C)CC[C@H](OC(=O)[C@H]6C[C@@H](C(=O)O)C6(C)C)C(C)(C)[C@@H]5CC[C@@]4(C)[C@]3(C)CC[C@@]2([C@@H](O)CNCC(C)(C)NC(=O)c2ccc(N3CCOCC3)cc2)CC1=O | MT-2 | 92HT599 |  | <1 µM |
| C[Si](C)(C)C#CC1=C(C(=O)OCC2CCCCC2)C(c2cccc([N+](=O)[O-])c2)NC(=O)N1 | CEM |  |  | 1–5 µM |
| CC(C)C1=C2[C@H]3CC[C@@H]4[C@@]5(C)CC[C@H](OC(=O)[C@H]6C[C@@H](C(=O)O)C6(C)C)C(C)(C)[C@@H]5CC[C@@]4(C)[C@]3(C)CC[C@@]2(CC(=O)NCC(C)(C)NC(=O)c2ccc(N3CCOCC3)cc2)CC1=O | MT-2 | 92HT599 |  | <1 µM |
| CC1([C@@H]2CC[C@]3(NC[C@H](C(=O)O)N4CCS(=O)(=O)CC4)CC[C@]4(C)[C@H](CC[C@@H]5[C@@]6(C)CC[C@H](OC(=O)[C@H]7C[C@@H](C(=O)O)C7(C)C)C(C)(C)[C@@H]6CC[C@]54C)[C@@H]23)CC1 | MT-2 | 92HT599 |  | 0.01001–0.02 µM |

The last 2 rows once more:

compound	cells	strain or isolate	changes	value
CC(C)C1=C2[C@H]3CC[C@@H]4[C@@]5(C)CC[C@H](OC(=O)[C@H]6C[C@@H](C(=O)O)C6(C)C)C(C)(C)[C@@H]5CC[C@@]4(C)[C@]3(C)CC[C@@]2(CC(=O)NCC(C)(C)NC(=O)c2ccc(N3CCOCC3)cc2)CC1=O	MT-2	92HT599		<1 µM
CC1([C@@H]2CC[C@]3(NC[C@H](C(=O)O)N4CCS(=O)(=O)CC4)CC[C@]4(C)[C@H](CC[C@@H]5[C@@]6(C)CC[C@H](OC(=O)[C@H]7C[C@@H](C(=O)O)C7(C)C)C(C)(C)[C@@H]6CC[C@]54C)[C@@H]23)CC1	MT-2	92HT599		0.01001–0.02 µM

An empty or dashed field is not shown. Rows are shuffled and stem from different studies. a–b is a range or a potency band.